In patent US10786542B2 (priority 2016, dated 2020) one finds IC50 data, which are given here for one compound.

Sequences of proteins named here, by UniProt entry; tags and fusion partners are left off. A change or cut given only in a name is not applied to a line headed by its entry.
UniProt P33527: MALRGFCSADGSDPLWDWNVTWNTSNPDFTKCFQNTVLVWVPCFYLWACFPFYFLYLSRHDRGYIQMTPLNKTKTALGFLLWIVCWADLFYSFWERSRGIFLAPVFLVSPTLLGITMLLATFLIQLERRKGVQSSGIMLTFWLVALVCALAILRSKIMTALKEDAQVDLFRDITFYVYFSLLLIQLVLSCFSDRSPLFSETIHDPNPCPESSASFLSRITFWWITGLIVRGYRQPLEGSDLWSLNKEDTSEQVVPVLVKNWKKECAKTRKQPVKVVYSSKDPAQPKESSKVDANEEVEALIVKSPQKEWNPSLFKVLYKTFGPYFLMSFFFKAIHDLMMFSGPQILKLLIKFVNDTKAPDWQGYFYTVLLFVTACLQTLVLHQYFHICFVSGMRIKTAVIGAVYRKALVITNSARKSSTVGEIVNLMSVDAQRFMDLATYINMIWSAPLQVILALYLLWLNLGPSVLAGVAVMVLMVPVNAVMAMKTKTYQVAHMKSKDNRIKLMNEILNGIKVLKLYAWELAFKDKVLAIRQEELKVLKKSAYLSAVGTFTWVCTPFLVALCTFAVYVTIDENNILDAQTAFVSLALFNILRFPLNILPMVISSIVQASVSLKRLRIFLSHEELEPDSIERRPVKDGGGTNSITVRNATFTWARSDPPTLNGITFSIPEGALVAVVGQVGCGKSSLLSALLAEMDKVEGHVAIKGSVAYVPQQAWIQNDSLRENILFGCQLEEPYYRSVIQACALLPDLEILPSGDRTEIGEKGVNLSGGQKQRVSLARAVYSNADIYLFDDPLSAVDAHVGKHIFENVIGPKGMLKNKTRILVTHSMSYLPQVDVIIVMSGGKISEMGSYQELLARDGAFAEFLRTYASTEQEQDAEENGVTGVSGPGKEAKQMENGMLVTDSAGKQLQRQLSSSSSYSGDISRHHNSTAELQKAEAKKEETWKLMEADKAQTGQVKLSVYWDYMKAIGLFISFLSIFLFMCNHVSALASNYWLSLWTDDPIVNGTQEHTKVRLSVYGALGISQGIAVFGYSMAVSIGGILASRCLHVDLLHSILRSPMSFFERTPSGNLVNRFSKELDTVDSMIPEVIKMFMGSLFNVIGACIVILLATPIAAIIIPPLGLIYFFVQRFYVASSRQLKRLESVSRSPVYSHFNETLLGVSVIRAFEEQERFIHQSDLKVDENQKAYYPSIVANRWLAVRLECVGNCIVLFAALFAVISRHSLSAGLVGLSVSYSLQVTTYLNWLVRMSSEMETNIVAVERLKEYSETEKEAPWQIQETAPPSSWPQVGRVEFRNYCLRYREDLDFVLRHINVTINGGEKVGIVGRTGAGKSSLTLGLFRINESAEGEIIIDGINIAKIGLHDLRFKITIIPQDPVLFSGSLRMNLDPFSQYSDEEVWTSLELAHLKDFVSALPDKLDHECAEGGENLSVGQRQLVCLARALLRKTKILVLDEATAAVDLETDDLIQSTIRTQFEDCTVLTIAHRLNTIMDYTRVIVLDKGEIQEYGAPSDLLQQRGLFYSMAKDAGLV

The assay has as its target MRP1 (Homo sapiens, UniProt P33527). The assay is described as follows: Calcein efflux (MRP1 activity) in A549 tumor cells. The conditions noted are these: read-out: IC50 for inhibition of efflux of MRP1 substrate calcein.

What is called IC50 is the midpoint of a concentration-inhibition curve. In the case of `C=CS(=O)(=O)C=C`, the half-maximal inhibitory concentration (IC50) was 5.8 nM.
